Data as given in patent US6713043B2 (priority 1996, dated 2004).

Test system: ts envM E. coli mutant ts100 with pBSK:2.1 L. pneumophila insert
Assay: Zone of inhibition, ts envM E. coli complemented with L. pneumophila DNA insert

Cc1ccc(C)c(OCCCC(C)(C)C(=O)O)c1 [GFZ, Gemfibrozil]
sensitivity to GFZ (zone of inhibition) (permissive temperature 30° C., with or without the insert): not sensitive | sensitivity to GFZ (zone of inhibition) (restrictive conditions 42° C., low osmolarity LB plates, 5 mg GFZ disks): sensitive
